Test results as given in publication PMC12406258, “Uncovering the Unusual Inhibition Mechanism of a Trypanosome Alternative Oxidase Inhibitor Displaying Broad-Spectrum Activity against African Animal Trypanosomes” (Journal of Medicinal Chemistry, 2025).
The match of structure and compound is tentative.

Sequences of proteins named here, by UniProt entry; tags and fusion partners are left off. A change or cut given only in a name is not applied to a line headed by its entry. Residues count along the entry.
UniProt Q26710, 26-329 limits assumed, stated change not applied: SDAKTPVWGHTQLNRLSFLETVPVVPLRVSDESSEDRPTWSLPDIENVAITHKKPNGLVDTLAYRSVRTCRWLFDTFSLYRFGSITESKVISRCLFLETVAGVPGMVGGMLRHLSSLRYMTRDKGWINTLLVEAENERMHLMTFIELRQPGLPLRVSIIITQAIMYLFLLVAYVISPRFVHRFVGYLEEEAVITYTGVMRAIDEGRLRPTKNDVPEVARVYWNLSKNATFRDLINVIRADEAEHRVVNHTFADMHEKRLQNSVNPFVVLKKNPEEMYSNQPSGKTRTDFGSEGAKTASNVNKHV

Target: recombinant TAO (ΔMTS rTAO) (Trypanosoma brucei brucei, UniProt Q26710)
Assay: Inhibition of ubiquinol oxidase activity of purified recombinant TAO
Type: biochemical, T. brucei

Cc1ccc(C(=O)CCCCCCCCCCCCCCC[P+](c2ccccc2)(c2ccccc2)c2ccccc2)c(O)c1 was tested, and the “Inhibition of TAO at the highest concentration tested” value (5 μM) was “did not inhibit” and the IC50 (read-out: rTAO IC50 (supplementary csv, compounds 2, 3, 5, 7, 11), IC50 (µM)) was > 5 µM.
